PubChem BioAssay AID527 (NMMLSC, 2006)
Only a part is listed here, and it is no random draw. Calls of active or inactive are those of the source.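 The calls were made as follows: active = share of bacteria positive for the green fluorescent reporter and its mean brightness both inhibited by 50% or more; inactive = the rest, inconclusive results apart.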

Experiment: S. aureus quorum sensing inhibitors, primary screen, RNAIII-GFP reporter, flow cytometry (AID 527);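 also: 0% = AIP-stimulated control and 100% = unstimulated bacteria without AIP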
Details: S. aureus RN6390 RNAIII-GFP reporter, AIP-induced, flow cytometry 3 h; at 2 µM; active compounds read high

Row | SMILES | inhibition
1 | Fc1ccccc1NC1CCN(Cc2ccccc2)CC1 | inactive: -0.2%
2 | N#CC1(Nc2ccccc2)CCN(CCc2ccccc2)CC1 | inactive: 2.7%
